Reference: patent US11267825B2 (AICURIS GMBH & CO. KG, priority 2017, dated 2022)

Chains of the proteins cited; added tags and fusions are not shown.
UniProt P03146, whole entry: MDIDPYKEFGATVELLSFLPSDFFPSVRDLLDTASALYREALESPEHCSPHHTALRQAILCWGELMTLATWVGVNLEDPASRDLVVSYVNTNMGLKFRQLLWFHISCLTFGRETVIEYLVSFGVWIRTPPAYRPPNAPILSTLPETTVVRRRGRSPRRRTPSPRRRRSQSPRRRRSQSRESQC

Legend:
HBV = assay: Determination of HBV DNA from the supernatants of HepAD38 cells (anti-HBV activity); conditions: read-out: Cell Activity (EC50); HBV DNA in HepAD38 supernatant at day 6
Experimental: Determination of HBV DNA from the Supernatants of HepAD38 Cells
The anti-HBV activity was analysed in the stable transfected cell line HepAD38, which has been described to secrete high levels of HBV virion particles (Ladner et al., 1997). In brief, HepAD38 cells were cultured at 37° C. at 5% CO2 and 95% humidity in 200 μl maintenance medium, which was Dulbecco's modified Eagle's medium/Nutrient Mixture F-12 (Gibco, Karlsruhe), 10% fetal bovine serum (PAN Biotech Aidenbach) supplemented with 50 μg/ml penicillin/streptomycin (Gibco, Karlsruhe), 2 mM L-glutamine (PAN Biotech, Aidenbach), 400 μg/ml G418 (AppliChem, Darmstadt) and 0.3 μg/ml tetracycline. Cells were subcultured once a week in a 1:5 ratio, but were usually not passaged more than ten times. For the assay 60,000 cells were seeded in maintenance medium without any tetracycline into each well of a 96-well plate and treated with serial half-log dilutions of test compound. […] EC50 values were calculated from relative copy numbers of HBV DNA. […] Viral load was quantitated against known standards using HBV plasmid DNA of pCH-9/3091 (Nassal et al., 1990, Cell 63: 1357-1363) and the LightCycler 480 SW 1.5 software (Roche Diagnostics, Mannheim) and EC50 values were calculated using non-linear regression with GraphPad Prism 6 (GraphPad Software Inc., La Jolla, USA).

HBV core protein = HBV core protein (UniProt P03146); conditions: read-out: Assembly Activity (IC50); BODIPY-FL labelled core protein, assembly started with NaCl, read after 6 min
HepAD38 cells = assay: Cell viability assay (AlamarBlue) in HepAD38 cells; conditions: HepAD38 cells in the presence of 0.3 μg/ml tetracycline, six days incubation

SMILES: Cc1cccc2cc(C(=O)N3CCc4nc(N)sc4C3)[nH]c12
- EC50 (HBV): < 1 µM
- IC50 (HBV core protein): < 5 µM
- CC50 (HepAD38 cells): > 100 µM
